Test system: M. tuberculosis strain Erdman
Details: mouse, in vivo

## Nc1nc2c(ncn2[C@@H]2O[C@@H]3CO[P@@](=O)(S)O[C@H]4[C@@H](O)[C@H](n5cnc6c(=O)[nH]c(N)nc65)O[C@@H]4CO[P@@](=O)(S)O[C@H]3[C@H]2O)c(=O)[nH]1 [RR-CDG, dithio-[RP, RP]-cyclic-[G(3′,5′)pG(3′,5′)p]]
  protection against aerosol challenge with virulent M. tuberculosis: 1.5 logs

Source: patent US11224646B2, “Intranasal delivery of a cyclic-di-nucleotide adjuvanted vaccine for tuberculosis” (priority 2018, dated 2022)
